PubChem BioAssay AID504761, Drosophila RNAi Screening Center – 2011

- Screen: 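Insect host genes that dengue virus relies on to spread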 (primary screen)
- Cells: D.Mel-2 cells from Drosophila
- Reagents: long dsRNA against Drosophila genes
- Conditions: infection with dengue virus type 2; dose and infection time not stated
- Read-out: 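Cells stained for dengue envelope protein and imaged; percent of infected cells per well on duplicate plates, ranked by infection, with stained nuclei counted for cell number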
- Scale: infection score: higher = more virus-infected cells
- Rule for the call: 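Very low infection ranking in both replicate wells (chance probability at most 0.065), then a retest showing infection dropped 1.5-fold or more at p below 0.05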
- Calls: active = confirmed: knock-down lowers infection; inactive = not picked or not confirmed
The deposit covers about 22,000 reagents; below is an unselected part of those with a known target gene and a result. Over the whole deposit, 116 (0.52%) were called active. 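Calls depend on retest data that are not deposited; infection was ranked per plate without normalising between plates; the unit of the infection score is not given.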 Reagents against one gene are numbered here. Names joined by + are all predicted targets of the reagent. Not all columns of the deposit are shown. No sequences are given here. Not stated in the record: the amount of reagent, the time to read-out.

no.	target gene	dsRNA no.	infection score, replicate 1	infection score, replicate 2	activity call
1	Nplp1	1	17.5	41.2	inactive
2	CG15498	1		11.4	inactive
3	Pex10	1	5.81	12.6	inactive
4	Pex10	2	13.5	6.92	inactive
5	Atg7	1	2.64	2.09	inactive
6	Atg7	2	3.23	2.51	inactive
7	Ptp99A	1	2.19	1.96	inactive
8	Ptp99A	2	21.4	0.26	inactive
9	Ptp99A	3	15.1	7	inactive
10	Ptp99A	4	4.61	6.35	inactive
11	Ptp99A	5	1.4	4.15	inactive
12	Ptp99A	6	3.77	14.4	inactive
13	Ptp99A	7	2.6	3.54	inactive
14	CG10286	1		5.93	inactive
15	Hsp23	1	12.4	14.3	inactive
16	Hsp23	2	16	14.6	inactive
17	CG8089	1	11.2	6.3	inactive
18	TM9SF2	1	21.5	23.1	inactive
19	TMEM216 + CG11760	1	15.6	16.6	inactive
20	ttv	1	18.5	9.7	inactive
21	ttv	2	5.1	0.77	inactive
22	CG13810	1	3.54	8.62	inactive
23	CG13810	2	1.71	6.32	inactive
24	CG13810	3	8.17	11.2	inactive
25	CG9886	1	4.31	13.9	inactive
26	CG9886	2	3.36	3.38	inactive
27	Rab27	1	6.4	1.67	inactive
28	Fdx1	1	0.96	6.71	inactive
29	Fdx1	2	10.6	18.8	inactive
30	CG33098	1	3.44	18.2	inactive
31	CG14856	1	5.58	7.91	inactive
32	ninaD	1	8.4	4.34	inactive
33	ninaD	2	1.24	1.63	inactive
34	l(2)34Fd	1	9.72	9.14	inactive
35	opa	1	6.27	11.7	inactive
36	opa	2	1.66	8.26	inactive
37	opa	3	11.2	2.76	inactive
38	RPA1	1	36.5	29.6	inactive
39	ksr	1	11.9	15.2	inactive
40	RpL37-1	1	3.04	8.23	inactive
41	RpL37-1	2	0.73	4.14	inactive
42	Best3	1	1.26	1.17	inactive
43	CG8343	1	13.4	26.6	inactive
44	CG8343	2	10.4	12.8	inactive
45	CG18853 + phr	1	6.81	9.74	inactive
46	Nepl16	1	1.51	2.27	inactive
47	CG13014	1	11.2	5.12	inactive
48	CG13014	2	7.67	4.57	inactive
49	CG4286	1	18.1	26.6	inactive
50	CG4286	2	18.8	14.1	inactive
51	armi	1	3.76	3.36	inactive
52	CG40045	1	7.76	6.94	inactive
53	Cpr76Bb	1	1.4	2.88	inactive
54	Cpr76Bb	2	2.58		inactive
55	Cpr76Bb	3	3.93	2.11	inactive
56	CG13511	1	15.8	14	inactive
57	CG13511	2	14.3	25.1	inactive
58	Dic61B	1	6.13	5.39	inactive

A run of entries from the list above, as a working copy:
no.	target gene	dsRNA no.	infection score, replicate 1	infection score, replicate 2	activity call
42	Best3	1	1.26	1.17	inactive
43	CG8343	1	13.4	26.6	inactive
44	CG8343	2	10.4	12.8	inactive
45	CG18853 + phr	1	6.81	9.74	inactive
46	Nepl16	1	1.51	2.27	inactive
47	CG13014	1	11.2	5.12	inactive
48	CG13014	2	7.67	4.57	inactive
49	CG4286	1	18.1	26.6	inactive
50	CG4286	2	18.8	14.1	inactive
